Molecular target: the molecule itself
Assay: self-association (heptamer) seen on SDS-PAGE

B1: NetB mutant W262A (W292A in SEQ ID NO:3) (other)
chain: SELNDINKIELKNLSGEIIKENGKEAIKYTSSDTASHKGWKATLSGTFIEDPHSDKKTALLNLEGFIPSDKQIFGSKYYGKMKWPETYRINVKSADVNNNIKIANSIPKNTIDKKDVSNSIGYSIGGNISVEGKTAGAGINASYNVQNTISYEQPDFRTIQRKDDANLASWDIKFVETKDGYNIDSYHAIYGNQLFMKSRLYNNGDKNFTDDRDLSTLISGGFSPNMALALTAPKNAKESVIIVEYQRFDNDYILNWETTQARGTNKLSSTSEYNEFMFKINWQDHKIEYYL
B1: binds.
